Our source for the Km values is paper PMC6299217, “Intrinsic Class D β-Lactamases of Clostridium difficile” (2018).

This assay relates to CDD-1. Nature of the assay: steady-state hydrolysis, spectrophotometric, Michaelis-Menten fit. The note with it: conditions as in cited earlier work on class D beta-lactamases.

The term Km denotes the concentration of substrate that gives half-maximal velocity.

Take `CC1(C)S[C@@H]2[C@H](NC(=O)[C@H](N)c3ccccc3)C(=O)N2[C@H]1C(=O)O`: the Km amounted to 2.7 µM.
